Results of unrelated studies side by side (data: NIAID ChemDB).

Common to all: growth or infection tests; organism: HIV-1; read by: cytopathic effect / MTT; endpoint: EC50

ECn is the concentration giving n% inhibition of infection, replication or growth. Rows are shuffled and stem from different studies.

{"smiles": "CCc1c(Sc2cc(C)cc(C)c2)n(COCCO)c(=O)[nH]c1=O", "cells": "MT-4", "strain": "IIIB", "value": "0.016 µM"}
{"smiles": "Cc1cn([C@H]2C[C@H](N=[N+]=[N-])[C@@H](COC(=O)NCCSC(=O)OC[C@H]3O[C@@H](n4cc(C)c(=O)[nH]c4=O)C[C@@H]3N=[N+]=[N-])O2)c(=O)[nH]c1=O", "cells": "MT-4", "mutations": "RT-Y181C", "strain": "NNRTI-resistant (RT Y181C)", "value": "1 µM"}
{"smiles": "O=C1C2c3cccn3S(=O)(=O)c3ccccc3N2C(=O)CN1Cc1ccccc1", "cells": "MT-4", "strain": "IIIB", "value": ">300 µM"}
{"smiles": "Cc1ccnc2c1NC(=O)c1cccnc1N2C1CC1", "cells": "MT-4", "mutations": "RT-Y188L", "value": ">10 µM"}
{"smiles": "Fc1cccc(Cl)c1C1OCc2nc3ccccc3n21", "cells": "CEM", "mutations": "RT-V106A", "strain": "Nevirapine-resistant (RT V106A)", "value": ">14.69 µM"}
{"smiles": "CCC(C)Oc1cc(N)nc(Sc2cccc(C)c2)n1", "cells": "MT-4", "strain": "IIIB", "value": "26 µM"}
{"smiles": "CC(C)(C)NC(=O)[C@@H]1CN(Cc2cccnc2)CCN1C[C@@H](O)C[C@@H](Cc1ccccc1)C(=O)N[C@H]1c2ccccc2C[C@H]1O", "cells": "MT-4", "strain": "NL4-3 WT", "value": "0.041 µM"}
{"smiles": "c1ccc(-c2cc(CN3CCCNCCNCCCNCC3)cc(CN3CCCNCCNCCCNCC3)c2)cc1", "cells": "MT-4", "strain": "AOM", "value": "0.08 µg/mL"}
{"smiles": "CCOC(=O)C1c2cccn2Sc2ccccc2N1C(=O)CCl", "cells": "MT-4", "strain": "IIIB", "value": "176 µM"}
{"smiles": "Cc1ccnc2c1NC(=O)c1cccnc1N2C1CC1", "cells": "MT-4", "mutations": "RT-A98S", "strain": "Recombinant mutant", "value": "0.037 µM"}
{"smiles": "c1cc(CN2CCCNCCCNCCNCCC2)ccc1CN1CCCNCCCNCCNCCC1", "cells": "MT-4", "strain": "AOM", "value": "0.14 µg/mL"}
{"smiles": "CCOC(=O)C1c2cccn2S(=O)(=O)c2ccccc2N1C(C)=O", "cells": "MT-4", "strain": "IIIB", "value": ">300 µM"}
{"smiles": "c1ccc(C2OCc3nc4ccccc4n32)cc1", "cells": "MT-4", "strain": "IIIB", "value": ">47 µM"}
{"smiles": "O=C(O)C1Nc2ccccc2S(=O)(=O)n2cccc21", "cells": "MT-4", "strain": "IIIB", "value": ">300 µM"}
{"smiles": "CCC(C)Oc1cc(N)nc(S(=O)(=O)c2ccc(Cl)cc2)n1", "cells": "MT-4", "strain": "IIIB", "value": ">82 µM"}
{"smiles": "CC(=O)Oc1ccc(/C=C/C(=O)O[C@@H](C(=O)O)[C@@H](OC(=O)/C=C/c2ccc(OC(C)=O)c(OC(C)=O)c2)C(=O)O)cc1OC(C)=O", "cells": "MT-4", "mutations": "AR177-resistant", "strain": "NL4-3", "value": ">74 µM"}
{"smiles": "c1cc(CN2CCCNCCNCCCNCC2)ccc1CN1CCCNCCNCCCNCC1", "cells": "MT-4", "strain": "RF", "value": "0.02 µM"}
{"smiles": "CCC(C)Oc1cc(=O)[nH]c(Sc2cccc(Cl)c2)n1", "cells": "MT-4", "strain": "IIIB", "value": "45 µM"}
{"smiles": "CN1C(=O)c2cccn2S(=O)(=O)c2ccc(Cl)cc21", "cells": "MT-4", "strain": "IIIB", "value": "20 µM"}
{"smiles": "CNC(C)[C@H]1O[C@H](O[C@@H]2[C@@H](O)[C@H](O[C@@H]3OC[C@@](C)(O)[C@@H](NC)[C@@H]3O)[C@@H](NC(=O)[C@@H](N)CCCN=C(N)N)C[C@H]2NC(=O)[C@@H](N)CCCN=C(N)N)[C@H](NC(=O)[C@@H](N)CCCN=C(N)N)[C@@H](O)[C@@H]1O", "cells": "MT-4", "strain": "AMD3100-resistant", "value": ">133 µM"}
{"smiles": "Cc1cn([C@H]2C[C@H](N=[N+]=[N-])[C@@H](CO)O2)c(=O)[nH]c1=O", "cells": "MT-4", "strain": "RF", "value": "0.056 µM"}
{"smiles": "c1cc(CCN2CCCNCCNCCCNCC2)ccc1CCN1CCCNCCNCCCNCC1", "cells": "MT-4", "strain": "NL4-3", "value": "30.4 µg/mL"}
{"smiles": "Nc1ccn([C@H]2CC[C@@H](CO)O2)c(=O)n1", "cells": "MT-4", "mutations": "RT-E138A", "strain": "Recombinant mutant", "value": "3.886 µM"}
{"smiles": "O=c1[nH]cnc2c1ncn2[C@H]1CC[C@@H](CO)O1", "cells": "MT-4", "mutations": "RT-M184V", "strain": "IIIB", "value": "76 µM"}
{"smiles": "CCOCn1c(Cc2cc(C)cc(C)c2)c(CC)c(=O)[nH]c1=O", "cells": "MT-4", "strain": "RF", "value": "0.0013 µM"}
{"smiles": "Cc1cn([C@H]2C[C@H](N=[N+]=[N-])[C@@H](CO)O2)c(=O)[nH]c1=O", "cells": "MT-4", "mutations": "RT-Y181C", "strain": "NNRTI-resistant (RT Y181C)", "value": "0.02 µM"}
{"smiles": "CC(=O)O[C@@]12C[C@@H](C)[C@@]3(O)[C@@H](C=C(CO)C[C@]4(O)C(=O)C(C)=C[C@@H]34)[C@@H]1C2(C)C", "cells": "MT-4", "strain": "NDK Subtype D", "value": "0.07 µg/mL"}
{"smiles": "CCCCSc1nc(N)cc(Cl)n1", "cells": "MT-4", "strain": "IIIB", "value": "65 µM"}
{"smiles": "CCOCn1c(Sc2cc(C)cc(C)c2)c(CC)c(=O)[nH]c1=O", "cells": "MT-4", "strain": "RF", "value": "0.0045 µM"}
{"smiles": "c1cc(CN2CCCNCCNCCCNCC2)ccc1CN1CCCNCCNCCCNCC1", "cells": "MT-4", "strain": "NL4 Aco-HSA-resistant", "value": "0.01 µg/mL"}
{"smiles": "Cc1cn([C@H]2C=C[C@@H](CO)O2)c(=O)[nH]c1=O", "cells": "MT-2", "mutations": "RT-Q151M A62V", "value": ">50 µM"}
{"smiles": "CCC(C)Oc1cc(N)nc(Sc2ccccc2N)n1", "cells": "MT-4", "strain": "IIIB", "value": ">200 µM"}
{"smiles": "CC(C)=CCN1Cc2cc(Cl)cc3[nH]c(=S)n(c23)C[C@@H]1C", "cells": "CEM + CEM-SS", "strain": "LAV", "value": "0.148 µM"}
{"smiles": "COC(=O)c1cc(CN2CCCNCCNCCCNCC2)ccc1CN1CCCNCCNCCCNCC1", "cells": "SupT1 + Sup-T1", "strain": "168.10", "value": "1.2 µg/mL"}
{"smiles": "CCC(C)Oc1cc(=O)[nH]c(S(=O)(=O)c2cc(C)cc(C)c2)n1", "cells": "MT-4", "strain": "IIIB", "value": "6.6 µM"}
{"smiles": "Cc1cn([C@@H]2O[C@H](CO[Si](C)(C)C(C)(C)C)C3(OS(=O)(=O)C=C3N)[C@H]2O[Si](C)(C)C(C)(C)C)c(=O)n(C)c1=O", "cells": "MT-4", "mutations": "RT-E138A S162C E169D T200A L214F", "strain": "HXB2 (RT E138A S162C E169D T200A L214F) Clinical isolate", "value": "2.98 µM"}
{"smiles": "C1CNCCNCCCN2CCCNCCNCCCN(C1)CC2", "cells": "MT-4", "strain": "RF", "value": ">250 µg/mL"}
{"smiles": "Cc1cn([C@H]2C[C@H](N=[N+]=[N-])[C@@H](COC(=O)NCCSC(=O)OC[C@@H]3CC[C@H](n4cnc5c(=O)[nH]cnc54)O3)O2)c(=O)[nH]c1=O", "cells": "MT-4", "mutations": "RT-K103N Y181C", "strain": "NNRTI-resistant (RT K103N Y181C)", "value": "1.2 µM"}
{"smiles": "CCC(C)Oc1nc(N)cc(S(=O)(=O)c2ccccc2)n1", "cells": "MT-4", "strain": "IIIB", "value": "12 µM"}
{"smiles": "CCN1C(=O)c2cccn2S(=O)(=O)c2ccc(Cl)cc21", "cells": "MT-4", "strain": "IIIB", "value": "13 µM"}
{"smiles": "Nc1ccn([C@H]2CC[C@@H](CO)O2)c(=O)n1", "cells": "MT-4", "strain": "IIIB", "value": "0.09 µg/mL"}
{"smiles": "C=CCN1C(=O)c2cccn2S(=O)(=O)c2ccc(Cl)cc21", "cells": "MT-4", "strain": "IIIB", "value": ">32 µM"}
{"smiles": "O=[N+]([O-])c1cc(CN2CCCNCCNCCCNCC2)cc(CN2CCCNCCNCCCNCC2)c1", "cells": "MT-4", "strain": "AOM", "value": "0.65 µg/mL"}
{"smiles": "Cc1c(O)cccc1C(=O)N[C@@H](CSc1ccccc1)[C@H](O)CN1C[C@H]2CCCC[C@H]2C[C@H]1C(=O)NC(C)(C)C", "cells": "MT-4", "strain": "NL4-3", "value": "0.015 µM"}
{"smiles": "Cc1cn([C@H]2C[C@H](N=[N+]=[N-])[C@@H](CO)O2)c(=O)[nH]c1=O", "cells": "MT-2", "strain": "LAI WT", "value": "0.5 µM"}
{"smiles": "O=C1Nc2ccccc2Cn2cccc21", "cells": "MT-4", "strain": "IIIB", "value": ">300 µM"}
{"smiles": "C1CNCCNCCCN(CCCN2CCCNCCNCCCNCC2)CCNC1", "cells": "SupT1 + Sup-T1", "strain": "168.10", "value": "0.2 µg/mL"}
{"smiles": "CCC(C)Oc1cc(N)nc(S(=O)(=O)c2cccc(C)c2)n1", "cells": "MT-4", "strain": "IIIB", "value": ">97 µM"}
{"smiles": "CCOCn1c(Sc2cc(C)cc(C)c2)c(CC)c(=O)[nH]c1=S", "cells": "MT-4", "strain": "IIIB", "value": "0.0056 µM"}
{"smiles": "CC(C)=CCN1Cc2cc(Cl)cc3[nH]c(=S)n(c23)C[C@@H]1C", "cells": "MT-4", "mutations": "RT-A98S E138A", "strain": "Recombinant mutant", "value": "0.199 µM"}
{"smiles": "CCC(C)Oc1cc(=O)[nH]c(Sc2ccccc2Cl)n1", "cells": "MT-4", "strain": "IIIB", "value": "25 µM"}